Measured values published in US10561143B2, “Fungicidal composition having synergistic effect” (JIANGSU HUIFENG AGROCHEMICAL CO., LTD., priority 2013, dated 2020).

Tests used:
[1] = test system: downy mildew pathogens of grape; test: Toxicity test on downy mildew pathogens of grape (disease index and control effect on whole grape plants, EC50 and co-toxicity coefficient); conditions: Table 1; (EC50 of standard/EC50 of test agent)*100, standard benziothiazolinone
[2] = Table 18, standard benziothiazolinone
[3] = Table 19, standard benziothiazolinone

`CC(C)OC(=O)N[C@H](C(=O)N[C@H](C)c1nc2ccc(F)cc2s1)C(C)C` [Benthiavalicarb-isopropyl] was tested, and the “ATI (actual toxicity index)” value [1] was 82.98.

For `Cl.O=c1[nH]sc2ccccc12` [Benziothiazolinone hydrochloride], the “ATI (actual toxicity index)” value (rust pathogens of wheat; Table 16, standard printed as benziothiazolinone hydrochloride) was 100.

With `O=c1[nH]sc2ccccc12` [Benziothiazolinone] the “ATI (actual toxicity index)” value [1] was 100, the “ATI (actual toxicity index)” value (rust pathogens of wheat; Table 17, standard benziothiazolinone) was 100 and the “ATI (actual toxicity index)” value (rust pathogens of wheat; [2]) was 100. For the same compound, the “ATI (actual toxicity index)” value (rust pathogens of wheat; [3]) was 100.

For `O=[N+]([O-])c1cc(C(F)(F)F)c(Cl)c([N+](=O)[O-])c1Nc1ncc(C(F)(F)F)cc1Cl` [Fluazinam], the “ATI (actual toxicity index)” value (rust pathogens of wheat; in vivo) was 94.23.

For `O=C(NCc1ncc(C(F)(F)F)cc1Cl)c1c(Cl)cccc1Cl` [Fluopicolide], the “ATI (actual toxicity index)” value (rust pathogens of wheat; [3]) was 103.12.

In the case of `CO/C=C(/C(=O)OC)c1ccccc1COc1cccc(C(F)(F)F)n1` [Picoxystrobin], the “ATI (actual toxicity index)” value (rust pathogens of wheat; [2]) is reported as 90.92.

For `OC(Cc1ccccc1Cl)(Cn1nc[nH]c1=S)C1(Cl)CC1` (stereo not shown) [Prothioconazole], the “ATI (actual toxicity index)” value (rust pathogens of wheat; in vivo) was 103.13.

Where two headings read alike, the source gives them in different places.
